The text below walks through data of patent US4767621A (priority 1982, dated 1988).

In the data set the test system is human T lymphoblastoid cells of the CEM line bearing the antigen T-65. The settings on record: for potentiating effect (factor) on the cytotoxicity of immunotoxin anti-T-65: NH4+ 10 mM, monensin 50 nM, nigericin 10 nM, grisorixin 50 nM, lasalocide 1 μM.

As for ammonium chloride, the “potentiating effect (factor) on the cytotoxicity of immunotoxin anti-T-65” value worked out at 7000.
Turning to grisorixin, the “potentiating effect (factor) on the cytotoxicity of immunotoxin anti-T-65” value was found to be 27000. Where the note is “monensin and grisorixin 50 nanomolar, nigericin 10 nanomolar, lasalocide 1 micromolar, ionophore alone”, the “spontaneous cytotoxicity of the ionophore for the cells employed” value is listed as “not spontaneously cytotoxic”.
